This note sets out measurements from ChEMBL document CHEMBL4011590, “Structure-activity relationship studies on 3,5-dinitrophenyl tetrazoles as antitubercular agents” (Eur J Med Chem, 2017).

In brackets after ≈: the same amount, converted by molar mass.

In assay [1] the test system is Mycobacterium tuberculosis. Nature of the assay: Antimycobacterial activity against Mycobacterium tuberculosis H37Rv CNCTC My 331/88 after 14 days by micromethod.
Assay [2] relates to Mycobacterium tuberculosis. In words: Antimycobacterial activity against Mycobacterium tuberculosis H37Rv CNCTC My 331/88 after 21 days by micromethod.
Assay [3] deals with Mycobacterium avium. In words: Antimycobacterial activity against Mycobacterium avium CNCTC My 330/80 after 14 days by micromethod.
The test system of assay [4] is Mycobacterium avium. In words: Antimycobacterial activity against Mycobacterium avium CNCTC My 330/80 after 21 days by micromethod.
The test system of assay [5] is Mycobacterium kansasii. In words: Antimycobacterial activity against Mycobacterium kansasii CNCTC My 235/80 after 7 days by micromethod.
Assay [6] deals with Mycobacterium kansasii. In words: Antimycobacterial activity against Mycobacterium kansasii CNCTC My 235/80 after 14 days by micromethod.
Assay [7] has as its system Mycobacterium kansasii. Nature of the assay: Antimycobacterial activity against Mycobacterium kansasii CNCTC My 235/80 after 21 days by micromethod.
Assay [8] concerns Mycobacterium kansasii. Nature of the assay: Antimycobacterial activity against Mycobacterium kansasii isolate 6509/96 after 7 days by micromethod.
Assay [9] deals with Mycobacterium kansasii. In words: Antimycobacterial activity against Mycobacterium kansasii isolate 6509/96 after 14 days by micromethod.
The test system of assay [10] is Mycobacterium kansasii. In words: Antimycobacterial activity against Mycobacterium kansasii isolate 6509/96 after 21 days by micromethod.

In the case of `O=[N+]([O-])c1ccc(-n2nnnc2SCn2nnc(-c3cc([N+](=O)[O-])cc([N+](=O)[O-])c3)n2)cc1`, the MIC>99 in [1] is 0.125 µM (≈ 0.0589 µg/mL); in assay [2] it was 0.25 µM (≈ 0.118 µg/mL); in assay [3], 8 µM (≈ 3.77 µg/mL); in assay [4], 16 µM (≈ 7.54 µg/mL); in assay [5], 4 µM (≈ 1.89 µg/mL); in [6] it was 8 µM (≈ 3.77 µg/mL). In addition, the MIC>99 came out at 16 µM (≈ 7.54 µg/mL) in assay [7], 2 µM (≈ 0.943 µg/mL) in assay [8], 4 µM (≈ 1.89 µg/mL) in [9] and 8 µM (≈ 3.77 µg/mL) in assay [10].
